A mixed list of measured activities; the numbers were collected in NIAID ChemDB.

All rows: growth or infection tests; species: Mycobacterium kansasii

Neighbouring rows are from separate reports. Blank or dashed fields: not listed here. A number after MIC or MFC names an inhibition level or a share of isolates.

COc1ccc2oc(=S)n(-c3ccc(Cl)c(Cl)c3)c(=S)c2c1 ; strain or isolate: My 235/80 ; endpoint: MIC ; setting: 14 d ; value: 32 µM
O=C(Nc1ccc(Cl)c(Cl)c1)c1ccc(Cl)cc1OS(=O)(=O)c1ccccc1 ; strain or isolate: 6509/96 ; endpoint: MIC ; setting: 7 d ; value: 8 µM
O=C(Oc1cc(Cl)ccc1C(=O)Nc1ccc(Cl)cc1)c1cnccn1 ; strain or isolate: 235/80 ; endpoint: MIC ; setting: 7 d ; value: 2 µM
CC(C)N=c1cc2n(-c3ccc(Cl)cc3)c3ccccc3nc-2cc1Nc1ccc(Cl)cc1 ; read by: fluorescence ; endpoint: MIC90 ; value: 1.776 µg/mL
S=c1oc2ccc(Br)cc2c(=S)n1-c1ccc(Cl)c(Cl)c1 ; strain or isolate: My 235/80 ; endpoint: MIC ; setting: 21 d ; value: 8 µM
CCOC(=O)c1c(-c2ccccc2)c2ccc(Cl)cc2oc1=O ; strain or isolate: ATCC 12478 ; read by: resazurin ; endpoint: MIC90 ; value: >100 µg/mL
O=c1oc2ccc(Br)cc2c(=S)n1-c1ccc(Cl)cc1 ; strain or isolate: My 235/80 ; endpoint: MIC ; setting: 14 d ; value: 4 µM
O=C(Oc1cc(Cl)ccc1C(=O)Nc1ccc(C(F)(F)F)cc1)c1cnccn1 ; strain or isolate: 235/80 ; endpoint: MIC ; setting: 14 d ; value: 1 µM
O=C(NNC(=O)c1ccncc1)Nc1c(Cl)cc(Cl)cc1Cl ; strain or isolate: My 235/80 ; read by: broth dilution ; endpoint: MIC100 ; setting: 7 d ; value: >125 µM
Fc1ccc(-n2c(=S)oc3ccc(Br)cc3c2=S)cc1 ; strain or isolate: 6509/96 ; endpoint: MIC ; setting: 21 d ; value: 16 µM
O=C(NNC(=O)c1ccncc1)Nc1cc(Cl)cc(Cl)c1 ; strain or isolate: My 6509/96 ; read by: broth dilution ; endpoint: MIC100 ; setting: 21 d ; value: 125 µM
O=C(Nc1cccc(C(F)(F)F)c1)c1ccc(Cl)cc1OS(=O)(=O)c1ccccc1 ; strain or isolate: 6509/96 ; endpoint: MIC ; setting: 21 d ; value: 125 µM
Cc1ccc(NC(=O)c2cc(Cl)ccc2OC(=O)[C@@H](Cc2cc3ccccc3[nH]2)NC(=O)OCc2ccccc2)cc1 ; strain or isolate: DSM 44162 ; read by: broth dilution ; endpoint: MIC100 ; value: 13.74 µM
O=C(NNC(=O)c1ccncc1)Nc1ccc(Br)cc1F ; strain or isolate: My 6509/96 ; read by: broth dilution ; endpoint: MIC100 ; setting: 7 d ; value: 125 µM
COC(=O)c1cnccn1 ; strain or isolate: 235/80 ; endpoint: MIC ; setting: 21 d ; value: >500 µM
O=c1oc2ccc(Br)cc2c(=S)n1-c1ccccc1 ; strain or isolate: 6509/96 ; endpoint: MIC ; setting: 14 d ; value: 2 µM
O=C(Nc1ccc(Cl)cc1)c1ccc(Cl)cc1OS(=O)(=O)c1ccccc1 ; strain or isolate: 6509/96 ; endpoint: MIC ; setting: 7 d ; value: 8 µM
CC(C)(C)c1ccc(NC(=O)NNC(=O)c2ccncc2)cc1 ; strain or isolate: My 235/80 ; read by: broth dilution ; endpoint: MIC100 ; setting: 7 d ; value: 32 µM
O=C(Oc1cc(Cl)ccc1C(=O)Nc1cccc(Br)c1)c1cnccn1 ; strain or isolate: 235/80 ; endpoint: MIC ; setting: 7 d ; value: 4 µM
O=C(Nc1cccc(F)c1)c1cc(Cl)ccc1OS(=O)(=O)c1ccccc1 ; strain or isolate: 6509/96 ; endpoint: MIC ; setting: 7 d ; value: 16 µM
CCCCCCc1ccc(NC(=O)NNC(=O)c2ccncc2)cc1 ; strain or isolate: My 235/80 ; read by: broth dilution ; endpoint: MIC100 ; setting: 7 d ; value: 32 µM
O=c1oc2ccc(F)cc2c(=S)n1-c1ccc(F)cc1 ; strain or isolate: 6509/96 ; endpoint: MIC ; setting: 14 d ; value: 8 µM
O=C(Oc1ccc(Br)cc1C(=O)Nc1ccc(C(F)(F)F)cc1)c1cnccn1 ; strain or isolate: 6509/96 ; endpoint: MIC ; setting: 21 d ; value: 2 µM
O=C(NNC(=O)c1ccncc1)Nc1ccc(Cl)c(Cl)c1 ; strain or isolate: My 235/80 ; read by: broth dilution ; endpoint: MIC100 ; setting: 14 d ; value: 125 µM
COc1ccc(NC(=O)c2cc(Cl)ccc2OC(=O)[C@@H](NC(=O)OCc2ccccc2)C(C)C)cc1 ; strain or isolate: DSM 44162 ; read by: broth dilution ; endpoint: MIC100 ; value: 62.62 µM
O=C(Nc1ccc(F)cc1)c1cc(Cl)ccc1OS(=O)(=O)c1ccccc1 ; strain or isolate: 235/80 ; endpoint: MIC ; setting: 21 d ; value: 8 µM
CC(C)c1ccc(NC(=O)NNC(=O)c2ccncc2)cc1 ; strain or isolate: My 235/80 ; read by: broth dilution ; endpoint: MIC100 ; setting: 14 d ; value: 16 µM
Cc1ccc2oc(=S)n(-c3ccc(F)cc3)c(=S)c2c1 ; strain or isolate: My 235/80 ; endpoint: MIC ; setting: 21 d ; value: 16 µM
O=C(Oc1ccc(Cl)cc1C(=O)Nc1cccc(C(F)(F)F)c1)c1cnccn1 ; strain or isolate: 235/80 ; endpoint: MIC ; setting: 21 d ; value: 8 µM

Repeating the final 3 entries:

compound	strain or isolate	read by	endpoint	setting	value
CC(C)c1ccc(NC(=O)NNC(=O)c2ccncc2)cc1	My 235/80	broth dilution	MIC100	14 d	16 µM
Cc1ccc2oc(=S)n(-c3ccc(F)cc3)c(=S)c2c1	My 235/80	-	MIC	21 d	16 µM
O=C(Oc1ccc(Cl)cc1C(=O)Nc1cccc(C(F)(F)F)c1)c1cnccn1	235/80	-	MIC	21 d	8 µM